# Measured values published in patent US7517998B2, “Non nucleoside reverse transcriptase inhibitors” (priority 2004, dated 2009).
# Where two headings read alike, the source gives them in different places.
# Target: K103NNY181C mutant reverse transcriptase (Human immunodeficiency virus type 1 group M subtype B, UniProt P04585, K690N/Y768C)
# Experiment: Reverse transcriptase enzymatic assay (PicoGreen), K103N/Y181C mutant RT
# Type: biochemical, HIV-1
# Details: read-out: IC50 mut, enzymatic assay of Example 24
# [1] = K103N/Y181C mutant reverse transcriptase
Structure (SMILES),IC50 [1],IC50 (mutant reverse transcriptase)
CC(C)(C#Cc1ccc(NC(=O)CSc2nnnn2-c2ccc(C(C)(C)C)cc2Cl)c(Cl)c1)OCC(=O)N1CCC(C(=O)O)CC1,26 nM,–
CC(C)(C#Cc1ccc(NC(=O)CSc2nnnn2-c2ccc(C3CC3)cc2Cl)c(Cl)c1F)OCCO[n+]1cccc([O-])c1,41 nM,–
Cc1ccc(-c2c(SCC(=O)Nc3ccc(-c4ccc(CC(=O)O)cc4)cc3Cl)cnn2C)c(Cl)c1,–,178 nM
